Measurements published in US10358453B2, “Antiviral compounds” (priority 2015, dated 2019).

Sequences of proteins named here, by UniProt entry; tags and fusion partners are left off.
UniProt P28887, whole entry: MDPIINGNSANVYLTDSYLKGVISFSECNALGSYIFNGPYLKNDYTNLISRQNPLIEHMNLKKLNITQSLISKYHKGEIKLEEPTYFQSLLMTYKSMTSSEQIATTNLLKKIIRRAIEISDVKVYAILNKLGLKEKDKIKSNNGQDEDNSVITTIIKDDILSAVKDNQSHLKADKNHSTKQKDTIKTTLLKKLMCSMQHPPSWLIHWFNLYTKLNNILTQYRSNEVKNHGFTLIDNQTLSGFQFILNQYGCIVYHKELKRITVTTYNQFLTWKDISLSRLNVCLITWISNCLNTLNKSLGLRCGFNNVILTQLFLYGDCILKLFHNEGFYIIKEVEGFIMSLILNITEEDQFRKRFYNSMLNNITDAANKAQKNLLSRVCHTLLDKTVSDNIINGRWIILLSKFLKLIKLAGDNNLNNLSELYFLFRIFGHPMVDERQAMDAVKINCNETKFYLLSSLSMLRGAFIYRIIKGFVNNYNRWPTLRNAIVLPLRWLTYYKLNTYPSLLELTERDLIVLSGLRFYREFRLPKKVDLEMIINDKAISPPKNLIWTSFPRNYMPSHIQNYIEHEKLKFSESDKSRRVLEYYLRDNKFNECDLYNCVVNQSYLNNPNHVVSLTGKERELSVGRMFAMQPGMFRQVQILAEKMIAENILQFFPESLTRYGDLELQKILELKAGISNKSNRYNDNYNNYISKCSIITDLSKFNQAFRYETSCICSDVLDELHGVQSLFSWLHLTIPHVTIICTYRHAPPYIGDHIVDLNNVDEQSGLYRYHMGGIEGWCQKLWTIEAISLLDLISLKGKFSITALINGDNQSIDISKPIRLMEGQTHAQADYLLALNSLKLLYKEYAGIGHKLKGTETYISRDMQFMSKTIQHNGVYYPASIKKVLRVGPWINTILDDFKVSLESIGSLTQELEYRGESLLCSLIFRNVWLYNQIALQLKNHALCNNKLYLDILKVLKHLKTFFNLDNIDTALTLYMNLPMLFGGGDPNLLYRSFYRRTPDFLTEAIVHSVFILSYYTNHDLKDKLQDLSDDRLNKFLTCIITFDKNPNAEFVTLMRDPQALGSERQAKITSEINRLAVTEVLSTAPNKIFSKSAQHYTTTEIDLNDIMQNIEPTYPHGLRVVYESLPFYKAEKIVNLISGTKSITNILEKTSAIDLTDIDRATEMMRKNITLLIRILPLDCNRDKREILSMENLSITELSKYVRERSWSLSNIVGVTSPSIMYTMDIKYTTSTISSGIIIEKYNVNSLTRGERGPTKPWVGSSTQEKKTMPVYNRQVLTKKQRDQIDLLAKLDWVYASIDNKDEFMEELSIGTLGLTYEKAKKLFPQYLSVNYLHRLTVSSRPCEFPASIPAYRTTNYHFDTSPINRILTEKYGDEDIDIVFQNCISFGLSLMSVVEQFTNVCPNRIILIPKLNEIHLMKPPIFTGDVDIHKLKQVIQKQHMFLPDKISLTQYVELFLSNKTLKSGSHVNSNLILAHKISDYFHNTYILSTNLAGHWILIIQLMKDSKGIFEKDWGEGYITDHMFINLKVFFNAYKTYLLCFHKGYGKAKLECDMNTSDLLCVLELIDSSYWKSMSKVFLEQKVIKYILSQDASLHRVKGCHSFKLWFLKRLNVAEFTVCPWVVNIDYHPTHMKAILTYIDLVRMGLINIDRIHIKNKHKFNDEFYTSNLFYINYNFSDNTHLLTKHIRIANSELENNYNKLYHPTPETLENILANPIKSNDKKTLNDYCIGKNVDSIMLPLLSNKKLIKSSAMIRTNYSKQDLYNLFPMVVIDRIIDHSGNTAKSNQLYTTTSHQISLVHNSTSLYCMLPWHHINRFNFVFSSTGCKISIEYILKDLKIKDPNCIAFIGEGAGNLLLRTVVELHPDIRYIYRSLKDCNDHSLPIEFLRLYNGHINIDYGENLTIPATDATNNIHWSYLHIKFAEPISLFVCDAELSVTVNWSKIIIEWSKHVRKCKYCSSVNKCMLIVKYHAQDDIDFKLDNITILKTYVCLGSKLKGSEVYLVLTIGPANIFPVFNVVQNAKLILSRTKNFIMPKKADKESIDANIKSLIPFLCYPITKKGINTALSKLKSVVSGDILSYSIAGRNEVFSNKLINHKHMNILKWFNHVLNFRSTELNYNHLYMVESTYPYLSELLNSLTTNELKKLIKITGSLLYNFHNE
UniProt P03421, whole entry partner: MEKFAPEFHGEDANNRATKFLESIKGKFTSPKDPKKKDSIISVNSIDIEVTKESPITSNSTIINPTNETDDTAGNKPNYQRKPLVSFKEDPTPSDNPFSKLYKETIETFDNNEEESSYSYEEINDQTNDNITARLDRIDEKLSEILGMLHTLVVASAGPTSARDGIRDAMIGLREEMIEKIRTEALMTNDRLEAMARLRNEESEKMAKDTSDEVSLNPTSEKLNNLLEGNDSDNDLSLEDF

Legend:
[1] = tested on: RSV subgenomic replicon 395 HeLa and APC126; experiment: RSV subgenomic replicon assay (Renilla luciferase); type: cell-based; conditions: RSV replicon cells (395 HeLa 7 days or APC126 3 days); Table G = less than 1 μM, Table H = equal to or higher than 1 μM and less than 50 μM
Source text: The RSV subgenomic replicon 395 HeLa and APC126 were licensed from Apath (Brooklyn, N.Y.) and were originally developed by Dr. Mark Meeples of Center for Vaccines & Immunity, the Research Institute at Nationwide Children's Hospital in Columbus, Ohio. To generate subgenomic RSV replicon, three glycoprotein genes, those for SH, G, and F, from a full-length recombinant GFP-expressing (rg) RSV antigenomic cDNA were deleted. In their place, a blasticidin S deaminase (bsd) gene was inserted. Through multiple steps, the RSV replicon was established in HeLa cells (395 Hela) or BHK cells (APC126). Both 395 HeLa and APC126 cells were cultured in Dulbecco's Modified Eagle Medium (DMEM) containing 4500 mg/L D-glucose, L-glutamine, and 110 mg/L sodium pyruvate (Invitrogen, Cat. #11995-040). The medium was further supplemented with 10% (v/v) fetal bovine serum (FBS) (Mediatech, Cat. #35-010-CV), 1% (v/v) penicillin/streptomycin (Mediatech, Cat. #30-002-CI), and 10 μg/mL of Blasticidin (BSD) (Invivogen, Cat. code ant-bl-1). Cells were maintained at 37° C. in a humidified 5% CO2 atmosphere. […]
The Renilla Luciferase Assay System (Promega, Cat. #E2820) was used to measure anti-RSV replicon activity. […] Luminescence was recorded using a Perkin Elmer multilabel counter Victor3V. […]

recombinant RSV complex = recombinant RSV complex (Human respiratory syncytial virus A, UniProt P28887); experiment: RSV polymerase inhibition assay; conditions: 10 nM recombinant RSV complex, 2 h at 30° C.; Table E = <1 μM, Table F = <50 μM
Method: Standard RSV polymerase assays were conducted in the presence of 10 nM recombinant RSV complex in a reaction buffer containing Tris-HCl pH7.5, 6 mM MgCl2, and other additives and substrates including RNA oligonucleotides and radionucleotides. Standard reactions were incubated in 96-well plate format for 2 h at 30° C., in the presence of increasing concentration of inhibitor. The reaction was stopped with 90 μL of 0.1M EDTA, and the reaction product was transferred to a “reading” 96-well plate. After washing of the plate, radiolabeled RNA products were detected according to standard procedures with a Trilux Topcount scintillation counter. The compound concentration at which the enzyme-catalyzed rate was reduced by 50% (IC50) was calculated by fitting the data to a non-linear regression (sigmoidal).

COc1cc(C(=O)NC[C@@](O)(c2cc3c(c(-c4ccc(F)cc4)n2)NC[C@@]3(C)N)C(F)(F)F)ccc1O[C@H]1CCNC1=O was tested, and the pEC50 [1] was > 6.00 and the pIC50 (recombinant RSV complex) was > 6.00.

pEC50, pIC50: −log10 of the molar value.
